PSTVd loop 6 mutant pool in Nicotiana benthamiana

Data from the supplement of Wu et al. 2024, doi:10.1371/journal.ppat.1012142.

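Three N. benthamiana plants were inoculated with the whole mutant pool. Samples came from the inoculated region at 5 days, the leaf margin at 10 and upper systemic leaves at 12.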

PSTVd intermediate strain, loop 6: wild type UGACCGCGAG, pool pattern UNNNCGNNNG; upper and lower strand joined, each 5' to 3', the first 5 letters being the upper strand, closing pairs included.

Values are reads per thousand in the sample; higher means more abundant, 0 means not found. Each value is the mean of three plants. "Pool" is the share in the plasmid pool used as inoculum, on the same scale. The inoculated region was read from the minus strand, the other sites from the plus strand. Samples held 36,220 to 57,551 reads, so the smallest values rest on one or two reads. The authors trace changes outside the varied positions to PCR and sequencing errors or to mutation in the plant; presence does not show that a variant is infectious alone. Wild type was 20.7 per thousand in the pool and the most common sequence in every sample (inoculated region 195, 198, 203; leaf margin 629, 591, 734; systemic leaves 942, 870, 868).

{"sequence": "UAUGCGGAGG", "pool": "0.183", "inoculated region": 0.0894, "leaf margin": 0.00920, "systemic leaves": 0}
{"sequence": "UGAUCGGAGG", "pool": "0.144", "inoculated region": 0.0721, "leaf margin": 0, "systemic leaves": 0}
{"sequence": "UUUUCGGGUG", "pool": "0.131", "inoculated region": 0.148, "leaf margin": 0, "systemic leaves": 0}
{"sequence": "UCGGCGCGCG", "pool": "0.209", "inoculated region": 0.0712, "leaf margin": 0, "systemic leaves": 0}
{"sequence": "UCCACGGACG", "pool": "0.301", "inoculated region": 0.624, "leaf margin": 0.0868, "systemic leaves": 0}
{"sequence": "UUCGCGGCAG", "pool": "0.144", "inoculated region": 0.0778, "leaf margin": 0, "systemic leaves": 0}
{"sequence": "UGGACGCGAU", "pool": "0.0131", "inoculated region": 0.632, "leaf margin": 0.128, "systemic leaves": 0}
{"sequence": "UAUACGCGAG", "pool": "0.353", "inoculated region": 0.293, "leaf margin": 0.415, "systemic leaves": 0.0594}
{"sequence": "UCGGCGCUCG", "pool": "0.196", "inoculated region": 0.0889, "leaf margin": 0.00920, "systemic leaves": 0}
{"sequence": "UUUCCGGUGU", "pool": "0.0131", "inoculated region": 0, "leaf margin": 0, "systemic leaves": 0}
{"sequence": "UGUACGAGUG", "pool": "0.170", "inoculated region": 0.137, "leaf margin": 0.00920, "systemic leaves": 0}
{"sequence": "UCACCGUUUG", "pool": "0.222", "inoculated region": 0.148, "leaf margin": 0, "systemic leaves": 0}
{"sequence": "UCAUCGGGCG", "pool": "0.118", "inoculated region": 0.725, "leaf margin": 0.0868, "systemic leaves": 0}
{"sequence": "UGUCCGCGAG", "pool": "0.275", "inoculated region": 0.312, "leaf margin": 0.219, "systemic leaves": 0.274}
{"sequence": "UAGACGUGGG", "pool": "0.209", "inoculated region": 0.132, "leaf margin": 0, "systemic leaves": 0}
{"sequence": "UCUGCGAGUG", "pool": "0.157", "inoculated region": 0.0898, "leaf margin": 0.0169, "systemic leaves": 0}
{"sequence": "UUGACGGGCG", "pool": "0.261", "inoculated region": 0.698, "leaf margin": 0.106, "systemic leaves": 0}
{"sequence": "UCAACGUCAG", "pool": "0.235", "inoculated region": 0.600, "leaf margin": 0.0943, "systemic leaves": 0}
{"sequence": "CGACCGGGAG", "pool": "0.0131", "inoculated region": 0.552, "leaf margin": 0.115, "systemic leaves": 0}
{"sequence": "UUCCCGGGAG", "pool": "0.235", "inoculated region": 0.162, "leaf margin": 0.0261, "systemic leaves": 0}
{"sequence": "CGACCGGUAG", "pool": "0.0131", "inoculated region": 0.00579, "leaf margin": 0.00920, "systemic leaves": 0}
{"sequence": "UCCACGGGUG", "pool": "0.131", "inoculated region": 0.119, "leaf margin": 0.00920, "systemic leaves": 0}
{"sequence": "UUGUCGAGCG", "pool": "0.301", "inoculated region": 0.102, "leaf margin": 0, "systemic leaves": 0}
{"sequence": "UAACCGGGUG", "pool": "0.235", "inoculated region": 0.120, "leaf margin": 0, "systemic leaves": 0}
{"sequence": "UCAUCGUGAG", "pool": "0.261", "inoculated region": 0.167, "leaf margin": 0.00773, "systemic leaves": 0}
{"sequence": "UACUCGGAGA", "pool": "0.0392", "inoculated region": 0, "leaf margin": 0, "systemic leaves": 0}
{"sequence": "UUAUCGAUGG", "pool": "0.288", "inoculated region": 0.120, "leaf margin": 0, "systemic leaves": 0.00673}
{"sequence": "UAGGCGGUCG", "pool": "0.340", "inoculated region": 0.0718, "leaf margin": 0, "systemic leaves": 0}
{"sequence": "UUAUCGAGCG", "pool": "0.261", "inoculated region": 0.132, "leaf margin": 0.00773, "systemic leaves": 0.00673}
{"sequence": "UCUACGCUCG", "pool": "0.340", "inoculated region": 0.0829, "leaf margin": 0.00920, "systemic leaves": 0}
{"sequence": "UUAUCGAGUG", "pool": "0.288", "inoculated region": 0.0597, "leaf margin": 0, "systemic leaves": 0}
{"sequence": "UAUUCGGGGG", "pool": "0.0654", "inoculated region": 0.0896, "leaf margin": 0, "systemic leaves": 0}

The last 3 entries again:

| sequence | pool | inoculated region | leaf margin | systemic leaves |
|---|---|---|---|---|
| UCUACGCUCG | 0.340 | 0.0829 | 0.00920 | 0 |
| UUAUCGAGUG | 0.288 | 0.0597 | 0 | 0 |
| UAUUCGGGGG | 0.0654 | 0.0896 | 0 | 0 |